Results of unrelated studies side by side (data: NIAID ChemDB).

Shared fields: host cell toxicity; cells: CEM; read-out: CC50

Conditions beyond the fields shown may differ between rows.

COc1cc(Br)c(/C=N/N=C(\N)NO)cc1OC.Cc1ccc(S(=O)(=O)O)cc1 ; value: 16 µg/mL
O=Cc1ccc(O)c(O)c1 ; value: <3 µg/mL
C/C(=N\NC(=O)CN1c2c(-c3ccccc3)n[nH]c2-c2ccccc2S1(=O)=O)c1cc(Cl)sc1Cl ; read by: MTS ; value: 14.4 µM
CCOc1cc(/C=N/NC(=O)Cn2nc(-c3ccccc3)c3c2-c2ccccc2S(=O)(=O)N3C)ccc1O ; value: <1 µM
Cc1ccc[n+]([O-])c1S(=O)(=O)Cc1c(Cl)cccc1Cl ; read by: cell count ; value: 70 µg/mL
CCCNC(=O)CN(C)C(=O)c1ccc(Sc2ccc(F)cc2)c([N+](=O)[O-])c1 ; read by: MTT ; value: 70 µM
CC(C)c1ccc(C(C)C)c(CS(=O)(=O)c2cccc[n+]2[O-])c1 ; read by: cell count ; value: 6.4 µg/mL
C=C(C)[C@@H]1CC[C@]2(C(=O)NCCCCCCCC(=O)NCCC(=O)O)CC[C@]3(C)[C@H](CC[C@@H]4[C@@]5(C)CC[C@H](O)C(C)(C)[C@@H]5CC[C@]43C)[C@@H]12 ; value: >3 µM
Cc1ccc(C)c(C(Cl)S(=O)(=O)c2cc(C)cc[n+]2[O-])c1 ; value: >4 µg/mL
CCCOC12CS(=O)(=O)OC13[C@@H](CN2)O[C@@H](n1cc(C)c(=O)[nH]c1=O)[C@@H]3O ; value: >250 µM
Cc1ccc(C)c(C(Cl)S(=O)(=O)c2cc(C)cc[n+]2[O-])c1 ; read by: cell count ; value: >100 µg/mL
C=C(C)[C@@H]1CC[C@]2(C(=O)NCCCCCCCC(=O)N[C@@H](CO)C(=O)O)CC[C@]3(C)[C@H](CC[C@@H]4[C@@]5(C)CC[C@H](O)C(C)(C)[C@@H]5CC[C@]43C)[C@@H]12 ; value: >3 µM
CN1c2c(-c3ccccc3)nn(CC(=O)N/N=C/c3ccc(O)cc3O)c2-c2ccccc2S1(=O)=O ; value: <1 µM
CC(c1ccccc1)S(=O)c1cccc[n+]1[O-] ; read by: cell count ; value: 1.4 µg/mL
O=C(O)C(=O)/C(=C\c1ccccc1)C(=O)c1ccccc1 ; read by: MTT ; value: >119 µM
Cc1ccc(C)c(CS(=O)c2ccc(Cl)c[n+]2[O-])c1 ; value: 31 µg/mL
N#C/C(=C/c1ccccc1)Sc1cccc[n+]1[O-] ; read by: cell count ; value: 8.7 µg/mL
COc1ccccc1O ; value: <3 µg/mL
Nc1nc(=O)n([C@@H]2O[C@H](CO)C[C@@H]2F)cc1F ; value: >580 µM
CO[C@H]1N([C@H]2C[C@H](N=[N+]=[N-])[C@@H](CO)O2)C(=O)NC(=O)[C@]1(C)Br ; read by: XTT ; value: >898 µM
Cc1cn([C@@H]2O[C@@H]3CN[C@@]4(C(N)=O)CS(=O)(=O)O[C@@]34[C@H]2O)c(=O)[nH]c1=O ; value: >250 µM
CCN(CC)c1ccc(/C=N/NC(=O)Cn2nc(-c3ccccc3)c3c2-c2ccccc2S(=O)(=O)N3C)cc1 ; value: >100 µM
Cc1cn([C@@H]2O[C@@H]3CN[C@@]4(OCc5ccccc5)CS(=O)(=O)O[C@@]34[C@H]2O)c(=O)[nH]c1=O ; value: >250 µM
Cc1ccc(C)c(C(C)S(=O)(=O)c2ccc(C)c[n+]2[O-])c1 ; read by: cell count ; value: ≥100 µg/mL
COc1ccc(/C=N/N=C(\N)NO)cc1O.Cc1ccc(S(=O)(=O)O)cc1 ; value: 44 µg/mL
C=C(C)[C@@H]1CC[C@]2(C(=O)NCC(=O)NCCCCCCCC(=O)O)CC[C@]3(C)[C@H](CC[C@@H]4[C@@]5(C)CC[C@H](O)C(C)(C)[C@@H]5CC[C@]43C)[C@@H]12 ; value: >3 µM
CCO[C@]12CS(=O)(=O)O[C@@]13C(CN2)O[C@@H](n1cc(C)c(=O)[nH]c1=O)[C@@H]3O[Si](C)(C)C(C)(C)C ; value: 25 µM
CC(=O)Nc1ccc(/C=N/NC(=O)Cn2nc(-c3ccccc3)c3c2-c2ccccc2S(=O)(=O)N3C)cc1 ; value: 44.6 µM
Cc1ccc(C)c(C(C#N)Sc2cccc[n+]2[O-])c1 ; read by: cell count ; value: 34 µg/mL
C=C(C)[C@@H]1CC[C@]2(C(=O)NCCCCC(=O)NCCCCC(=O)O)CC[C@]3(C)[C@H](CC[C@@H]4[C@@]5(C)CC[C@H](O)C(C)(C)[C@@H]5CC[C@]43C)[C@@H]12 ; value: >3 µM
CO[C@H]1N([C@H]2C=C[C@@H](CO)O2)C(=O)NC(=O)[C@]1(C)Cl ; read by: XTT ; value: >1030 µM
COc1cc(/C=C/c2ccc3ccc(C(=O)O)c(O)c3n2)cc(O)c1O ; read by: MTT ; value: 6 µM
COc1ccc(/C=N/N=C(\N)NO)cc1F ; value: 20 µg/mL
CC1=NC(=O)C(CC(=O)NCc2ccc(F)cc2)C(C)=N1 ; read by: MTT ; value: >115.3 µM
CN1c2c(-c3ccccc3)nn(CC(=O)N/N=C/c3ccccc3Br)c2-c2ccccc2S1(=O)=O ; value: 36.6 µM
C[C@]1(Br)C(=O)NC(=O)N([C@H]2C=C[C@@H](CO)O2)[C@@H]1N=[N+]=[N-] ; read by: XTT ; value: 44.7 µM
Cc1ccc(CS(=O)c2cccc[n+]2[O-])cc1 ; read by: cell count ; value: 11 µg/mL
CC(C)CS[C@H]1C[C@@H](n2cnc3c(N)ncnc32)[C@H](O)[C@@H]1O ; value: 156 µg/mL
C/C(=N\NC(=O)CN1c2c(-c3ccccc3)n[nH]c2-c2ccccc2S1(=O)=O)c1ccsc1 ; read by: MTS ; value: 10.7 µM
COc1ccc(/C=N/NC(=O)Cn2nc(-c3ccccc3)c3c2-c2ccccc2S(=O)(=O)N3C)c(OC)c1 ; value: >100 µM
C=C(C)[C@@H]1CC[C@]2(C(=O)NCCCCCCCC(=O)N[C@@H](CC(=O)O)c3ccccc3)CC[C@]3(C)[C@H](CC[C@@H]4[C@@]5(C)CC[C@H](O)C(C)(C)[C@@H]5CC[C@]43C)[C@@H]12 ; value: 5.95 µM
Cc1ccc(N)cc1C(C)S(=O)(=O)c1cccc[n+]1[O-] ; read by: cell count ; value: ≥100 µg/mL
O=S(=O)(Cc1c(Cl)c(Cl)c(Cl)c(Cl)c1Cl)c1cccc[n+]1[O-] ; value: 1.2 µg/mL
Cc1ccc(C)c(CS(=O)(=O)c2cccc(Cl)[n+]2[O-])c1 ; read by: cell count ; value: 4 µg/mL
CN1c2c(-c3ccccc3)nn(CC(=O)N/N=C/c3ccc(Br)cc3)c2-c2ccccc2S1(=O)=O ; value: 46.9 µM
Cc1ccc(C(=O)Nc2ccc(S(=O)(=O)O)c3cc(S(=O)(=O)O)cc(S(=O)(=O)O)c23)cc1NC(=O)c1cccc(NC(=O)Nc2cccc(C(=O)Nc3cc(C(=O)Nc4ccc(S(=O)(=O)O)c5cc(S(=O)(=O)O)cc(S(=O)(=O)O)c45)ccc3C)c2)c1 ; value: >174 µM
CCOc1cccnc1SCc1ccccc1 ; read by: cell count ; value: 90 µg/mL
CO[C@H]1N([C@H]2C=C[C@@H](CO)O2)C(=O)NC(=O)[C@]1(C)Br ; read by: XTT ; value: >128 µM
Cc1ccc(C)c(C(Cl)S(=O)(=O)c2c(Cl)ccc[n+]2[O-])c1 ; read by: cell count ; value: 15 µg/mL
C=C(C)[C@@H]1CC[C@]2(C(=O)NCCCCCCCC(=O)N[C@H](CO)C(=O)O)CC[C@]3(C)[C@H](CC[C@@H]4[C@@]5(C)CC[C@H](O)C(C)(C)[C@@H]5CC[C@]43C)[C@@H]12 ; value: >3 µM
Oc1cccnc1SCc1ccccc1 ; read by: cell count ; value: 35 µg/mL
Cc1ccc(C)c(CS(=O)(=O)c2cccc[n+]2[O-])c1 ; value: 31 µg/mL
O=[N+]([O-])c1cc(CS(=O)(=O)c2cccc[n+]2[O-])ccc1Cl ; read by: cell count ; value: 4.3 µg/mL
Cc1cn([C@@H]2O[C@@H]3CN[C@@]4(C#N)CS(=O)(=O)O[C@@]34[C@H]2O)c(=O)[nH]c1=O ; value: >250 µM
O=S(=O)(Cc1ccc(Cl)cc1)c1cccc[n+]1[O-] ; read by: cell count ; value: 25 µg/mL
O=C(OCC(=O)N1N=C2/C(=C/c3ccc(F)cc3)CCCC2C1c1ccc(F)cc1)c1cnccn1 ; read by: MTT ; value: >65 µM
Cc1ccc(C)c(C(C)S(=O)(=O)c2c(C)ccc[n+]2[O-])c1 ; read by: cell count ; value: 38 µg/mL
C=C(C)[C@@H]1CC[C@]2(C(=O)NCCCCCCCC(=O)NC(C)C(=O)O)CC[C@]3(C)[C@H](CC[C@@H]4[C@@]5(C)CC[C@H](O)C(C)(C)[C@@H]5CC[C@]43C)[C@@H]12 ; value: >3 µM
Cc1ccc(C)c(CSc2ncccc2O)c1 ; read by: cell count ; value: 39 µg/mL
C/C(=N\NC(=O)CN1c2c(-c3ccccc3)n[nH]c2-c2ccccc2S1(=O)=O)c1ccc2c(c1)OCCO2 ; read by: MTS ; value: 23.9 µM
N/C(=N\N=C\c1cccc(F)c1)NO ; value: 23 µg/mL
O=S(Cc1cccc(C(F)(F)F)c1)c1cccc[n+]1[O-] ; read by: cell count ; value: 54 µg/mL

The first 8 rows once more:

smiles,read by,value
COc1cc(Br)c(/C=N/N=C(\N)NO)cc1OC.Cc1ccc(S(=O)(=O)O)cc1,,16 µg/mL
O=Cc1ccc(O)c(O)c1,,<3 µg/mL
C/C(=N\NC(=O)CN1c2c(-c3ccccc3)n[nH]c2-c2ccccc2S1(=O)=O)c1cc(Cl)sc1Cl,MTS,14.4 µM
CCOc1cc(/C=N/NC(=O)Cn2nc(-c3ccccc3)c3c2-c2ccccc2S(=O)(=O)N3C)ccc1O,,<1 µM
Cc1ccc[n+]([O-])c1S(=O)(=O)Cc1c(Cl)cccc1Cl,cell count,70 µg/mL
CCCNC(=O)CN(C)C(=O)c1ccc(Sc2ccc(F)cc2)c([N+](=O)[O-])c1,MTT,70 µM
CC(C)c1ccc(C(C)C)c(CS(=O)(=O)c2cccc[n+]2[O-])c1,cell count,6.4 µg/mL
C=C(C)[C@@H]1CC[C@]2(C(=O)NCCCCCCCC(=O)NCCC(=O)O)CC[C@]3(C)[C@H](CC[C@@H]4[C@@]5(C)CC[C@H](O)C(C)(C)[C@@H]5CC[C@]43C)[C@@H]12,,>3 µM

CCn is the concentration with n% toxicity to the cells. Blank or dashed fields: not listed here.